Pooled drug test results. Numbers come from NIAID ChemDB, via PubChem.

Shared fields: growth or infection tests; organism: HIV-2; read by: MTT; read-out: EC50

ECn: concentration that inhibits the pathogen or its effect by n%.

compound,cells,strain,value
CNc1nc(Nc2c(C)cc(C)cc2C)nc(NC2CCN(Cc3ccc(C(N)=O)cc3)CC2)n1,MT-4,ROD,>27.39 µM
NCCCCNc1ccc2[nH]ccc2c1,MT-4,ROD,>19.23 µM
Cn1ncc2c1S(=O)(=O)N(CCc1ccccc1)C(=O)N2CCc1ccccc1Cl,MT-4,ROD,>300.1 µM
N#Cc1ccc(Cn2cc(CSc3nc(Cc4c(Cl)cccc4Cl)cc(=O)[nH]3)nn2)cc1,-,ROD,>133 µM
Cc1cc(C(O)c2ccc3ccccc3c2)nc(Nc2ccc(C#N)cc2)n1,MT-4,ROD,>31.2 µM
O=S1(=O)NC(Cc2cccc3ccccc23)=CC(=NC2CCN(Cc3ccc(Br)cc3)CC2)N1,MT-4,ROD,>83.78 µM
O=c1[nH]cnc2c1ncn2[C@H]1CC[C@@H](CO)O1,MT-4,ROD,82.1 µM
NC(N)=NCCCCNc1ccc2[nH]ccc2c1.O=S(O)O,MT-4,ROD,>213 µM
N#Cc1ccccc1CN1CCC(N=C2C=C(Cc3cccc4ccccc34)NS(=O)(=O)N2)CC1,MT-4,ROD,>108 µM
Cn1ncc2c1S(=O)(=O)N(CCc1ccc(Cl)cc1)C(=O)N2CCc1ccc(Cl)cc1,MT-4,ROD,>5.8 µM
CS(=O)(=O)c1ccc(CN2CCC(N=C3C=C(Cc4ccc(Cl)cc4Cl)NS(=O)(=O)N3)CC2)cc1,MT-4,ROD,>224 µM
CCCCc1c(Cc2cccc3ccccc23)nc(NCc2ccccc2)[nH]c1=O,MT-4,ROD,>39.75 µM
CCc1c(Cc2cc(C)cc(C)c2)nc(SCC(=O)c2ccc(OC)cc2)[nH]c1=O,MT-4,ROD,54.78 µM
c1cc2cc(NCCCNC3=NCCN3)ccc2[nH]1,MT-4,ROD,>166 µM
Cc1cc(C)c(Nc2ccc([N+](=O)[O-])c(NC3CCN(Cc4ccc(S(N)(=O)=O)cc4)CC3)n2)c(C)c1,MT-4,ROD,>14 µM
NC(=O)c1ccc(Cn2cc(CSc3nc(Cc4c(Cl)cccc4Cl)c(I)c(=O)[nH]3)nn2)cc1,-,ROD,>94.13 µM
CCc1c(Cc2cccc3ccccc23)nc(Nc2ccc(Cl)cc2)[nH]c1=O,MT-4,ROD,>152.1 µM
NC(=NCC(=O)NCCNc1ccc2[nH]ccc2c1)N[N+](=O)[O-],MT-4,ROD,>391 µM
CC(C)CN(C[C@@H](O)[C@H](Cc1ccccc1)NC(=O)O[C@H]1CCOC1)S(=O)(=O)c1ccc(N)cc1,MT-2,ROD,0.47 µM
O=C(CSc1nncnc1-c1ccccc1Cl)Nc1ccccc1Cl,MT-4,ROD,>90 µM
Cc1cc(C)c(Oc2ccc(N)c(NC3CCN(Cc4ccc(S(N)(=O)=O)cc4)CC3)n2)c(C)c1,MT-4,ROD,>26 µM
Cc1cn([C@H]2C[C@H](N=[N+]=[N-])[C@@H](CO)O2)c(=O)[nH]c1=O,MT-4,ROD,0.0005 µg/mL
Cc1cn([C@H]2C[C@H](N=[N+]=[N-])[C@@H](CO)O2)c(=O)[nH]c1=O,MT-4,ROD,0.0071 µM
c1cc2cc(NCCNC3=NCCN3)ccc2[nH]1,MT-4,ROD,>88.57 µM
Cc1c(Cc2cccc3ccccc23)nc(NC2CCCCC2)[nH]c1=O,MT-4,ROD,>42.6 µM
CC(C)(C)c1ccc(S(=O)(=O)N2CCC(NC(=O)c3cc(O)c(O)c(O)c3)CC2)cc1,MT-4,ROD,>131 µM
Cn1ncc2c1S(=O)(=O)N(CCc1ccc(C(C)(C)C)cc1)C(=O)N2CCc1ccc(C(C)(C)C)cc1,MT-4,ROD,>5.3 µM
CCCCc1c(Cc2cccc3ccccc23)nc(N(CC)CC)[nH]c1=O,MT-4,ROD,≥63.82 µM
CC(=O)c1ccc(C)cc1NC(C(N)=O)c1c(Cl)cccc1Cl,MT-4,EHO,>137 µM
O=c1[nH]c(SCc2cn(Cc3ccc(F)cc3)nn2)nc(Cc2cccc3ccccc23)c1I,-,ROD,>81.81 µM
CCCNc1nc(Cc2cccc3ccccc23)c(C)c(=O)[nH]1,MT-4,ROD,>41.97 µM
CC(C)Nc1cccnc1N1CCN(C(=O)c2cc3cc(NS(C)(=O)=O)ccc3[nH]2)CC1,MT-4,ROD,>127 µM
Cc1cc(C)c(Oc2ccc([N+](=O)[O-])c(NC3CCN(Cc4ccc(S(N)(=O)=O)cc4)CC3)n2)c(C)c1,MT-4,ROD,>22 µM
O=C(NC1CCN(S(=O)(=O)c2ccc(F)cc2)CC1)c1cc(O)c(O)c(O)c1,MT-4,ROD,>178.4 µM
Cc1cnc(Nc2ccc(C#N)cc2)nc1C(O)c1ccc2ccccc2c1,MT-4,ROD,>6.1 µM
O=C(CSc1nncnc1-c1ccccc1Cl)Nc1ccccc1Br,MT-4,ROD,>73 µM
CCOC(=O)CC(=O)N1CCC(NC(=O)c2cc(O)c(O)c(O)c2)CC1,MT-4,ROD,>31.3 µM
COc1ccc(S(=O)(=O)N(CC(C)C)C[C@@H](O)[C@H](Cc2cc(F)cc(F)c2)NC(=O)O[C@H]2CCO[C@H]3OCC[C@H]32)cc1,MT-2,ROD,0.0008 µM
N#Cc1ccc(Nc2nccc(C(Cl)c3cccc(Br)c3)n2)cc1,MT-4,ROD,30.4 µM
COc1c(O)cc([C@H]2Oc3cc(O)cc(O)c3[C@@H](c3c(O)cc(O)c4c3O[C@H](c3cc(O)c(OC)c(O)c3)[C@H](O)C4)[C@@H]2O)cc1O,MT-4,ROD,>7.58 µg/mL
Cc1c(Cc2c(Cl)cccc2Cl)nc(SCc2cn(Cc3ccc(S(N)(=O)=O)cc3)nn2)[nH]c1=O,-,ROD,>95.49 µM
CCc1c(Cc2cccc3ccccc23)nc(NCc2ccc(F)cc2)[nH]c1=O,MT-4,ROD,>31.44 µM
Cc1ccc(S(=O)(=O)N2CCC(NC(=O)c3cc(O)c(O)c(O)c3)CC2)cc1,MT-4,ROD,>66.1 µM
COC(=O)N[C@H](C(=O)N[C@@H](Cc1ccccc1)[C@@H](O)CN(Cc1ccc(-c2ccccn2)cc1)NC(=O)[C@@H](NC(=O)OC)C(C)(C)C)C(C)(C)C,MT-2,ROD,0.02 µM
Cc1cc(C)c(CN2CCC(N=C3C=C(Cc4ccc(Cl)cc4Cl)NS(=O)(=O)N3)CC2)c(C)c1,MT-4,ROD,>37.35 µM
Cc1cc(NCCc2cccc3ccccc23)cc(=O)o1,CEM,ROD,>10 µM
CCS(=O)(=O)N1CCC(NC(=O)c2cc(O)c(O)c(O)c2)CC1,MT-4,ROD,>36.6 µM
Cc1ccccc1CN1CCC(N=C2C=C(Cc3ccc(Cl)cc3Cl)NS(=O)(=O)N2)CC1,MT-4,ROD,>107 µM
O=C(CSc1nncnc1-c1ccccc1Cl)Nc1cccnc1Cl,MT-4,ROD,>167 µM
CCNC(N)=NCCNc1ccc2[nH]ccc2c1,MT-4,ROD,>47.28 µM
Cc1cc(S(=O)(=O)Cc2cccc3ccccc23)cc(=O)o1,CEM,ROD,>10 µM
Cc1ccnc2c1NC(=O)c1cccnc1N2C1CC1,MT-4,ROD,>2 µg/mL
Cc1ccnc2c1NC(=O)c1cccnc1N2C1CC1,CEM,ROD,>10 µM
Cn1ncc2c1S(=O)(=O)N(CCc1ccc(Cl)cc1Cl)C(=O)N2CCc1ccc(Cl)cc1Cl,MT-4,ROD,38.1 µM

The last 7 rows once more:

{"compound": "Cc1ccccc1CN1CCC(N=C2C=C(Cc3ccc(Cl)cc3Cl)NS(=O)(=O)N2)CC1", "cells": "MT-4", "strain": "ROD", "value": ">107 µM"}
{"compound": "O=C(CSc1nncnc1-c1ccccc1Cl)Nc1cccnc1Cl", "cells": "MT-4", "strain": "ROD", "value": ">167 µM"}
{"compound": "CCNC(N)=NCCNc1ccc2[nH]ccc2c1", "cells": "MT-4", "strain": "ROD", "value": ">47.28 µM"}
{"compound": "Cc1cc(S(=O)(=O)Cc2cccc3ccccc23)cc(=O)o1", "cells": "CEM", "strain": "ROD", "value": ">10 µM"}
{"compound": "Cc1ccnc2c1NC(=O)c1cccnc1N2C1CC1", "cells": "MT-4", "strain": "ROD", "value": ">2 µg/mL"}
{"compound": "Cc1ccnc2c1NC(=O)c1cccnc1N2C1CC1", "cells": "CEM", "strain": "ROD", "value": ">10 µM"}
{"compound": "Cn1ncc2c1S(=O)(=O)N(CCc1ccc(Cl)cc1Cl)C(=O)N2CCc1ccc(Cl)cc1Cl", "cells": "MT-4", "strain": "ROD", "value": "38.1 µM"}

An empty or dashed field is not shown. Lines come from different laboratories, so protocols vary.